{
  "source": "patent US6365625B1",
  "about": "“Compound for inhibiting HIV infectivity” (Procept, Inc., priority 1993, dated 2002)",
  "test_system": "CEM-T4 human T-lymphocyte cell line",
  "details": "PIC 024.4 30% polymer by weight",
  "data": [
    {"smiles": "O=c1[nH]cnc2c1ncn2[C@H]1CC[C@@H](CO)O1", "note": "[ddI, 2′,3′-Dideoxyinosine]", "values": [
      {"measurement": "Cytotoxicity TD50, CEM-T4 (IIIB)", "result": ">25", "unit": "µg/mL"}
    ]}
  ]
}
